According to PMC3904692:
The exact form of at least one protein or probe is not confirmed. Tags and fusion partners may be left off the protein sequences shown.

Target: T1, EBNA1 DBD (Epstein-Barr virus) (UniProt P03211)
T1 sequence (looked up, limits assumed): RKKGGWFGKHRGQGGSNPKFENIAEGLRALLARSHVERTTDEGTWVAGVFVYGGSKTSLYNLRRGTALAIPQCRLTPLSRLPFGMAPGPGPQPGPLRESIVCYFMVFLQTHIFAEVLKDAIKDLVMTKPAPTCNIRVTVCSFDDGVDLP
Test: EMSA
Details: 0, 100, 300, 900 ng protein, poly(dI-dC); 10 mM Tris-Cl pH 8.0, 100 mM KCl, 1 mM EDTA, 10 mM MgCl2, 0.05 ug/ul poly(dI-dC), 0.5 ug/ul BSA, 0.05% NP40, 35 mM beta-mercaptoethanol, 10% glycerol; room temperature; recombinant protein; label: 32P (5' end, T4 PNK)

Q: Does “TTTCTTATTTTCCAGGCAGCATATACTATCTCAAGCTCACCATGTC (double strand) [GKN1/2 site probe]” bind?
A: binds
